Among the data in patent publication US20260234738A1 are binding signal (MFI) values, retold here.

The target in the test is UNMODIFIED-SARS-CoV-2 Spike Protein (RBD)(R319-F541).mmH (SARS-CoV-2).

Several values for one entry are separate records, joined by “and”; a condition that tells them apart may be missing. Identical values can stand only once.

As to “Human_ACE2 (from UniProt Q9BYF1 18-740) (receptor; other documents disagree on this pair)”, the binding signal (MFI) was 5730 MFI and 10700 MFI and 9270 MFI.
